Results of unrelated studies side by side (data: NIAID ChemDB).

Shared fields: tests on isolated targets; organism: HIV-1; protein: Reverse transcriptase; endpoint: fold resistance

a–b is a range or a potency band. Conditions beyond the fields shown may differ between rows. Fold resistance has wild type as its base. Blank or dashed fields: not listed here.

smiles	strain	method	mutations	value
CCN1c2ncc(CCOc3cccc4c3ccc[n+]4[O-])cc2C(=O)N(C)c2ccc(Cl)nc21		nucleotide incorporation / radiometric	RT-Y188L	43.9
CCN1c2ncc(CCOc3ccc(C(=O)O)c4ccccc34)cc2C(=O)Nc2c(C)ccnc21		nucleotide incorporation / radiometric	RT-Y188L	>10
O=c1cc(Cc2ccccc2)nc(SCCCCO)[nH]1			RT-L100I	2
CCN1c2ncc(CCOc3ccc(CC(=O)O)c4ccccc34)cc2C(=O)N(C)c2ccc(C)nc21		nucleotide incorporation / radiometric	RT-V106A	>10
COC(=O)NCCCCNc1nc(Cc2ccccc2)c(C)c(=O)[nH]1			RT-V106A	>43.5
CCN1c2ncc(CCOc3ccc(-c4cnccc4C)cc3C)cc2C(=O)N(C)c2cccnc21	IIIB	nucleotide incorporation / radiometric	RT-K103N Y181C	1
Cc1cc(C2CC2)ccc1-n1c(Br)nnc1SCC(=O)Nc1ccc(S(N)(=O)=O)cc1Cl		nucleotide incorporation / radiometric	RT-Y188L	>2
CCN1c2ncc(CCOc3ccc(-c4ccn(CC(=O)O)n4)cc3)cc2C(=O)N(C)c2cccnc21	IIIB	nucleotide incorporation / radiometric	RT-K103N Y181C	>2
O=c1cc(Cc2ccccc2)nc(NCCCCO)[nH]1			RT-L100I	1.28
CCN1c2ncc(CCOc3ccc(-c4ccc[n+]([O-])c4C)cc3C)cc2C(=O)N(C)c2cccnc21	IIIB	nucleotide incorporation / radiometric	RT-K103N Y181C	1
CCN1c2ncc(CCOc3ccc(/C=C/C(=O)O)c4ccccc34)cc2C(=O)Nc2c(C)ccnc21		nucleotide incorporation / radiometric	RT-K103N Y181C	1–10
CCN1c2ncc(CCOc3ccc(S(=O)(=O)Nc4ccc(C(=O)O)cc4)cc3C)cc2C(=O)N(C)c2cccnc21	IIIB	nucleotide incorporation / radiometric	RT-K103N Y181C	1
CCc1cc(NCc2nc3c(C)ccc(C)c3o2)c(=O)[nH]c1C		nucleotide incorporation	RT-Y181F	0.5
CCN1c2ncc(CCOc3ccc(CCC(=O)O)c4ccccc34)cc2C(=O)N(C)c2ccc(F)nc21		nucleotide incorporation / radiometric	RT-Y188L	>10
CCN1c2ncc(CCOc3ccc(-c4ccc(C(=O)O)o4)cc3)cc2C(=O)N(C)c2cccnc21	IIIB	nucleotide incorporation / radiometric	RT-K103N Y181C	>1

2 of the rows above, restated:

smiles | strain | method | mutations | value
O=c1cc(Cc2ccccc2)nc(NCCCCO)[nH]1 |  |  | RT-L100I | 1.28
CCN1c2ncc(CCOc3ccc(CC(=O)O)c4ccccc34)cc2C(=O)N(C)c2ccc(C)nc21 |  | nucleotide incorporation / radiometric | RT-V106A | >10